Literature values as cited in patent publication US12372525B2 (priority 2013, dated 2025).

Test system: neuraminidase
Conditions: cited from earlier work

CC(=O)N[C@H]1[C@H]([C@H](O)[C@H](O)CO)OC(C(=O)O)=C[C@@H]1N=C(N)N [Zanamivir]
affinity compared with DANA: Zanamivir, inhaled, based on DANA -Higher affinity than DANA
